Source: US8415351B2 (priority 2007, dated 2013)

By UniProt entry, the sequences of proteins in these tests, tags left out. Where a name states a change or a piece, a line headed by the entry shows the natural chain unless it says otherwise. Residues count along the entry.
UniProt P26663, 2420-2989 limits assumed, stated change not applied: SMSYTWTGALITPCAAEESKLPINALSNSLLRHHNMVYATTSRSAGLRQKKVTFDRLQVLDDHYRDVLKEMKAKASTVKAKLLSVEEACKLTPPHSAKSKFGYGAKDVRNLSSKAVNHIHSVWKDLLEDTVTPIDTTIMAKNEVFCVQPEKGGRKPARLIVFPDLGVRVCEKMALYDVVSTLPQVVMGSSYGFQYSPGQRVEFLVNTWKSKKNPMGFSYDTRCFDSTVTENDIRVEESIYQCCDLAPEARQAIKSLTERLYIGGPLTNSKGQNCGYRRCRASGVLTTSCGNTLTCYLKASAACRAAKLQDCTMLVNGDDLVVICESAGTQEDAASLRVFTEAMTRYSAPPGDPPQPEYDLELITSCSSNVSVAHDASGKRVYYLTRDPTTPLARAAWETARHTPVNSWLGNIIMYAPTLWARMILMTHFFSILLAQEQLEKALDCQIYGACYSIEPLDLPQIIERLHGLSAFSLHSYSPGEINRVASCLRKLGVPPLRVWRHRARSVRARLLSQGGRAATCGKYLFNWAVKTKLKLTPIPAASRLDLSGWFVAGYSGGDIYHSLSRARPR
UniProt P27958, 2421-2990 limits assumed, stated change not applied: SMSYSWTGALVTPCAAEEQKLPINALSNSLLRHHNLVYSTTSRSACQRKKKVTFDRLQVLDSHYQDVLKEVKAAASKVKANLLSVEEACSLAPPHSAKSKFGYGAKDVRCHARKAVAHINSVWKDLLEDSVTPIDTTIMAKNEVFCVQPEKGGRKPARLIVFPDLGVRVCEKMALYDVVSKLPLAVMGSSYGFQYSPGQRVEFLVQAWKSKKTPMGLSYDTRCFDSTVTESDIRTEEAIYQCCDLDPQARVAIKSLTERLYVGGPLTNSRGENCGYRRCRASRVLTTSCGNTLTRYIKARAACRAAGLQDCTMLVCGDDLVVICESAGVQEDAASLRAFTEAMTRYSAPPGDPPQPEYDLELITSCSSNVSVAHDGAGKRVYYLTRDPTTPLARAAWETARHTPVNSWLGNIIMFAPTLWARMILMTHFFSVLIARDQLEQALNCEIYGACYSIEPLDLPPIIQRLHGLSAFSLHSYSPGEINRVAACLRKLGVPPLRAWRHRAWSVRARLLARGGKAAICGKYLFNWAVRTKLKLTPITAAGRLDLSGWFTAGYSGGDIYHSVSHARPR

What was measured:
[1] = target: HCV polymerase 1B (Δ21 NS5B, BK) (Hepatitis C virus genotype 1b, UniProt P26663); settings: read-out: IC50 1b
[2] = target: HCV polymerase 1A (Δ21 NS5B, H77) (Hepatitis C virus genotype 1a, UniProt P27958); settings: read-out: IC50 1a

## COc1c(-c2ccc3cc(NS(C)(=O)=O)ccc3c2)cc(-n2ccc(=O)[nH]c2=O)cc1-c1ccc2cc(NS(C)(=O)=O)ccc2c1
[1]
  IC50: > 1000 nM
[2]
  IC50: 100 to 1000 nM
